Measured values from several laboratories, pooled; numbers as filed in NIAID ChemDB.

Shared fields: target-level tests; agent: HIV-1; target: Reverse transcriptase

Rows are shuffled and stem from different studies. ICn: concentration for n% inhibition. Blank or dashed fields: not listed here.

compound,endpoint,method,strain or isolate,changes,result
C[C@@H]1O[C@@H](Oc2c(-c3ccc(O)c(O)c3)oc3cc(O)cc(O)c3c2=O)[C@H](O)[C@H](O)[C@H]1O,IC50,,,,>500 µM
CC(C)Nc1cccnc1N1CCN(C(=O)c2cc3cc4c(cc3[nH]2)OCO4)CC1,IC50,,IIIB,RT-Y181C,10.9 µM
CC[C@@H](C(=O)[C@@H](C)[C@@H](O)[C@H](C)CCc1ccc(C)c(O)c1C(=O)O)[C@H]1O[C@](CC)([C@H]2CC[C@](O)(CC)[C@H](C)O2)C[C@@H]1C,IC50,RT activity,,,>100 µg/mL
CC(C)=CCC[C@@H](C)C1CC[C@]2(C)CC=C(C=O)C1(C=O)[C@@H]2O,IC50,nucleotide incorporation / radiometric,,,10 µM
COc1ccc2c(c1)N(C(=O)OC(C)C)[C@@H](CSC)C(=S)N2,IC50,scintillation proximity / radiometric,,RT-G190E T215Y,>29 µM
Cc1ccc(-c2c(SCC(=O)Nc3ccc(-c4ccc(CC(=O)O)cc4)cc3Cl)cnn2C)c(Cl)c1,IC50,scintillation proximity / radiometric,,K103N + Y181C,6.48 µM
C/C=C/c1cn([C@@H]2O[C@H](COP(=O)(O)OP(=O)(O)OP(=O)(O)O)[C@@H](O)[C@@H]2O)c(=O)[nH]c1=O,Ki,nucleotide incorporation,IIIB,,0.08 µM
C[C@H]1C(=O)Nc2ccc(Cl)cc2S(=O)(=O)N1Cc1c(F)cccc1F,IC50,nucleotide incorporation / radiometric,,,0.26 µM
Cc1cc(C)cc(S(=O)(=O)c2c(C(=O)NNCCO)[nH]c3ccc(Cl)cc23)c1,IC50,nucleotide incorporation / radiometric,,RT-K103N,1.04 µM
O=C1c2c(O)cc(O)cc2O[C@H](c2ccc(O)cc2)[C@H]1c1c(O)cc(O)c2c(=O)cc(-c3ccc(O)c(O)c3)oc12,IC50,RT activity / radiometric,,,112 µM
Nc1ccn([C@@H]2CS[C@H](COP(=O)(O)OP(=O)(O)OP(=O)(O)O)O2)c(=O)n1,Ki,,,,0.97 µM
Cc1cc(C)cc(CN2C(C)C(=O)Nc3ccc(Cl)cc3S2(=O)=O)c1,IC50,nucleotide incorporation / radiometric,,,0.69 µM
COc1ccccc1N1CCN(C(=O)c2cc3cc4c(cc3[nH]2)OCO4)CC1,IC50,,IIIB,RT-P236L,>50 µM
CC1C(=O)Nc2ccc(Cl)cc2S(=O)(=O)N1Cc1c(F)cccc1F,IC50,nucleotide incorporation / radiometric,,,0.25 µM
O=c1[nH]c(=O)n([C@H]2C[C@H](O)[C@@H](COP(=O)(O)OP(=O)(O)OP(=O)(O)O)O2)cc1CCCl,Ki,nucleotide incorporation,IIIB,,1.2 µM
CC1Oc2cc(O)c3c(=O)c4ccc(O)c(O)c4oc3c2C1(C)C,IC50,RT activity / radiometric,,,153 µM
CCCc1cn([C@H]2C[C@H](O)[C@@H](COP(=O)(O)OP(=O)(O)OP(=O)(O)O)O2)c(=O)[nH]c1=O,Ki,nucleotide incorporation,IIIB,,0.43 µM
CCOc1ccccc1N1CCN(C(=O)c2cc3cc4c(cc3[nH]2)OCO4)CC1,IC50,RT activity,IIIB,,1.4 µM
CC[C@@H](O)[C@]1(C)C[C@H](C)[C@@](O)([C@H]2C[C@H](C)[C@H]([C@]3(C)CC[C@H]([C@@H]4CC[C@@]5(O[C@H]([C@@H](C)[C@@H](OC)[C@H](C)C(=O)O)[C@H](C)[C@@H](OC)[C@H]5C)O4)O3)O2)O1,IC50,RT activity,,,>100 µg/mL
COc1cc2c(ccc3c4cc(OC)c(OC)cc4c[n+](C)c23)cc1O,IC50,nucleotide incorporation,,,10 µg/mL
O=C(OC1[C@H](OC(=O)c2cc(O)c(O)c(O)c2)CC(O)(C(=O)O)C[C@H]1OC(=O)c1cc(O)c(O)c(O)c1)c1cc(O)c(O)c(O)c1,IC50,,IIIB,,2 µg/mL
CC/C=C\C/C=C\C/C=C\C/C=C\C/C=C\CCCC(=O)OC(CO[C@H]1O[C@H](CS(=O)(=O)O)[C@@H](O)[C@H](O)[C@H]1O)OC(=O)CCCCCCCCCCCCCCC,IC50,,,,~10 µM
COC1CCC(OC2CC(C)(C3CCC(C4OC(C)(O)C(C)CC4C)O3)OC2C2(C)CC(C)C3(OC(CC4OC(O)(C(C)C(=O)O)C(C)C(OC)C4OC)CC(OC)C3C)O2)OC1C,IC50,RT activity,,,>100 µg/mL
CCCCC[C@H](O)/C=C/[C@H]1C=CC(=O)[C@@H]1CCCCCCC(=O)O,IC50,radiometric,,,>50 µg/mL
C[C@H](NC(=S)Nc1ccccn1)C1CCCCC1,Ki,nucleotide incorporation,IIIB,,100 µM
O=c1c2cc(O)c(O)cc2oc2cc(O)cc(O)c12,IC50,RT activity / radiometric,,,28.25 µM
Nc1ccn([C@H]2CC[C@@H](COP(=O)(O)OP(=O)(O)OP(=O)(O)O)O2)c(=O)n1,Ki,,,,0.8 µM
C[C@@H]1C(=O)Nc2ccc(Cl)cc2S(=O)(=O)N1Cc1c(F)cccc1F,IC50,nucleotide incorporation / radiometric,,,7.4 µM
OCCc1c[nH]c2ccc(O)cc12,IC50,,,,>8000 µM
CCOc1ccccc1N1CCN(C(=O)c2cc3ccccc3[nH]2)CC1,IC50,,IIIB,RT-P236L,>50 µM